Measurements reported in patent publication US7528274B2, “Acylthiols and component thiol compositions as anti-HIV and anti-retroviral agents” (The United States of America as represented by the …, priority 2001, dated 2009).

Test system: HIV-1 144-44 (mutation L10I/M46I/I54V/L63P/A71V/V82A/L90M)
Test: XTT assay against drug resistant mutant HIV-1 144-44 in PBMCs
Type: cell-based
Settings: ratio of EC50 between the two strains of Table 2
From the text: One exemplary means to determine antiviral activity is with CEM-SS cells and virus (e.g., HIV-1RF) (MOI=0.01) using the XTT {2,3-bis[2-methoxy-4-nitro-5-sulfophenyl]-5- -[(phenylamino)carbonyl]-2H-tetrazolium hydroxide} cytoprotection assay, as described by Rice (1993) Proc. Natl. Acad. Sci. USA 90: 9721-9724, and Rice (1997) Antimicrob. Agents & Chemother. […] Briefly, cells are infected with HIV-1RF (or other virus to be tested) in the presence of various dilutions of test compounds and controls. The cultures are incubated for seven days. […] The cell death is measured by XTT dye reduction. XTT is a soluble tetrazolium dye that measures mitochondrial energy output, similar to MTT. […] Individual assays are done in duplicate using a sister plate method. […] Compound numbers therein refer to the numbers used in FIG. 1.

For `Cc1cn([C@H]2C[C@H](N=[N+]=[N-])[C@@H](CO)O2)c(=O)[nH]c1=O` [AZT, 3′-azido-2′, 3′-dideoxythymidine, reference compound], the “Fold less sensitive, first strain (HIV-1 144-44) versus second strain (HIV-1 1026040)” value was “approximately 200 fold”.
